Assay results: PMC5656576 (2017)

Target: UAP56 (cellular splicing factor, DExD-box RNA helicase) (UniProt Q13838)
Assay: SEC; each protein alone on Superose 6 PC 3.2/30 (SMART system); 25 mM HEPES-NaOH pH 7.0, 150 mM NaCl, 1 mM DTT, 5% glycerol

## UAP56 (cellular splicing factor, DExD-box RNA helicase) (from UniProt Q13838 1-428) (natural protein; other documents disagree on this pair)
  stoichiometry N: 2
